# Library screen at single concentrations

Mtb cholesterol medium: 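Whole-cell growth test on Mycobacterium tuberculosis, read after 4 days in a medium based on cholesterol and the lipid DPPC; the read-out is not stated. Concentration: 500 µM. The record gives no direction; compounds that gave an IC50 in retests scored well above the rest, so higher reads as more growth inhibition. About 18,000 compounds were tested under these conditions; 5% (about 900) showed 50% or more at least once.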
Mtb glucose medium: 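Phenotypic screen: M. tuberculosis growth, glucose 7H9 medium, 3 days; the read-out is not stated. Compounds at 500 µM. The record gives no direction; compounds that gave an IC50 in retests scored well above the rest, so higher reads as more growth inhibition. Size under these conditions: about 18,000 compounds, about 1,400 of them at 50% or above in at least one test.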

Each number is a percent effect as filed.
The controls that fix the scale are not given in the record; negative values are as filed.
This is part of a subset picked to be rich in strong results.
A dash means the value is not listed here; it may have been measured.

{"compound": "CC(N)c1coc2ccccc12", "stereo": "stereo not given", "Mtb cholesterol medium": 13.27}
{"compound": "CC(C)(C)C(=O)CNC(=O)C1(C#N)CCCCC1", "Mtb glucose medium": 3.347}
{"compound": "CCCN(Cc1cccc(C#N)c1)C1CCS(=O)(=O)C1", "stereo": "stereo not given", "Mtb cholesterol medium": 11.88}
{"compound": "CCO[C@H]1CN(c2nc(-c3ccccc3)no2)C[C@@H]1O", "Mtb glucose medium": 56.96}
{"compound": "COc1ccc(OC)c(NC(=O)c2ccccn2)c1", "Mtb cholesterol medium": 78.5, "Mtb glucose medium": 82.36}
{"compound": "CN1CC(=O)Nc2cccnc21", "Mtb cholesterol medium": 92.12, "Mtb glucose medium": 91.84}
{"compound": "COc1ccc(CCN)cc1F", "Mtb cholesterol medium": 54.86, "Mtb glucose medium": 52.69}
{"compound": "Cc1nn(C)c(C)c1CN1CC(C)C1", "Mtb cholesterol medium": -1.582}
{"compound": "Cc1nnc(SCCN)s1", "Mtb glucose medium": 50.79}
{"compound": "CNC(=O)Cn1cc(-c2ccc3c(c2)OCO3)cn1", "Mtb cholesterol medium": 0.6396}
{"compound": "CC(C)NC(=O)c1cccc(CN)c1", "Mtb glucose medium": 11.86}
{"compound": "COCc1csc(CN)c1", "Mtb glucose medium": 7.143}
{"compound": "CC(C)(C)NC(=O)C1CCCC1", "Mtb glucose medium": 4.9}
{"compound": "O=C(c1ccncc1)N1CCOc2ccccc21", "Mtb cholesterol medium": -17.43}
{"compound": "CSCC(C)(O)CNc1nnnn1-c1ccccc1", "stereo": "stereo not given", "Mtb glucose medium": 63.03}
{"compound": "CC1CN(C(=O)Cc2ccsc2)CCO1", "stereo": "stereo not given", "Mtb glucose medium": 18.16}
{"compound": "OCc1cc2ccccc2nc1N1CCSCC1", "Mtb cholesterol medium": 80.02, "Mtb glucose medium": 76.13}
{"compound": "COC(=O)CCNC(=O)C1CCCO1", "stereo": "stereo not given", "Mtb cholesterol medium": 7.578, "Mtb glucose medium": 5.497}
{"compound": "COCC(C)NC(=O)c1cncn1-c1ccc(F)cc1", "stereo": "stereo not given", "Mtb glucose medium": -2.565}
{"compound": "Nc1ccnc(-c2ccccc2)n1", "Mtb glucose medium": 23.47}
{"compound": "CCc1cc(C(=O)NC(CC)[C@H]2C[C@H](O)C2)cc(=O)[nH]1", "stereo": "stereo not given in full", "Mtb cholesterol medium": -5.366}
{"compound": "Cc1nnsc1C(=O)Nc1ccccn1", "Mtb glucose medium": 16.51}
{"compound": "C[C@H](N)c1ccco1", "Mtb glucose medium": 11.44}
{"compound": "COCCNc1ncnc2c1cnn2CCC#N", "Mtb cholesterol medium": 1.991, "Mtb glucose medium": 26.06}
{"compound": "CC1(C)CN(C(=O)c2cscn2)CCS1(=O)=O", "Mtb glucose medium": 4.313}
{"compound": "Cc1ccc(-n2nnnc2NCC2CCCO2)cc1", "stereo": "stereo not given", "Mtb cholesterol medium": 66.03, "Mtb glucose medium": 61.03}
{"compound": "COCC(O)CNc1ncc(Br)cn1", "stereo": "stereo not given", "Mtb cholesterol medium": 9.961}
{"compound": "NCC1CCN1Cc1ccccc1", "stereo": "stereo not given", "Mtb cholesterol medium": 5.425}
{"compound": "CCNC(=O)[C@@H]1C[C@H](N)CN1C(=O)C1(COC)CCC1", "Mtb glucose medium": 3.839}
{"compound": "NCC(NS(=O)(=O)CCc1cccs1)C1CC1", "stereo": "stereo not given", "Mtb glucose medium": 57.5}
{"compound": "OCCNC1CCCC1", "Mtb glucose medium": 66.63}
{"compound": "CCN(CC)C(=O)C1CCCN1Cc1cccnc1", "stereo": "stereo not given", "Mtb glucose medium": -12.84}
{"compound": "COc1cccc(F)c1C(C)N", "stereo": "stereo not given", "Mtb cholesterol medium": 10, "Mtb glucose medium": 6.185}
{"compound": "COC(=O)CC(NC(=O)c1ccon1)C1CC1", "stereo": "stereo not given", "Mtb cholesterol medium": -12.75}
{"compound": "COCC(NC(=O)c1cccc(Cl)c1F)C(N)=O", "stereo": "stereo not given", "Mtb glucose medium": 6.356}
{"compound": "CC(=O)Nc1ccc(C(=O)Nc2nnc(C)s2)cc1", "Mtb glucose medium": 4.176}
{"compound": "OCCCN(CCO)Cc1c(Cl)ccc2cccnc12", "Mtb cholesterol medium": 2.478}
{"compound": "COCCN(Cc1ccco1)C(=O)c1cnc(C)cn1", "Mtb glucose medium": 13.27}
{"compound": "CSC1(CNC(=O)NCc2ccco2)CCOCC1", "Mtb cholesterol medium": 24.13}
{"compound": "CSCc1ccc(C(=O)N2CC(CC(N)=O)C2)cc1", "Mtb glucose medium": 98.84}
{"compound": "Clc1ccsc1CNCc1cc[nH]n1", "Mtb glucose medium": 18.71}
{"compound": "O=S(=O)(CCO)c1ccc(Br)cc1", "Mtb cholesterol medium": 17.23}
{"compound": "CC(C)CNC(=O)N(C)Cc1cnn(C)c1", "Mtb cholesterol medium": 9.024}
{"compound": "CCc1cccc(NC(=O)C2(N)CC2)c1", "Mtb cholesterol medium": 0.2123}
{"compound": "Cc1nc(C(=O)NCC2(N(C)C)CCOCC2)cs1", "Mtb glucose medium": -4.648}
{"compound": "O=S1(=O)N=C(NCc2ccco2)c2ccccc21", "Mtb cholesterol medium": 4.978}
{"compound": "COc1ccc(CN2CC(N3CCOCC3)C2)cn1", "Mtb cholesterol medium": -1.814}

4 of the entries, repeated:

| compound | Mtb cholesterol medium | Mtb glucose medium |
|---|---|---|
| `CC(C)(C)NC(=O)C1CCCC1` | - | 4.9 |
| `CC(N)c1coc2ccccc12` (stereo not given) | 13.27 | - |
| `COCCN(Cc1ccco1)C(=O)c1cnc(C)cn1` | - | 13.27 |
| `COC(=O)CC(NC(=O)c1ccon1)C1CC1` (stereo not given) | -12.75 | - |

From ChEMBL document CHEMBL3988442, “University of Dundee, Small-Polar-MMV Screening Library” (2021).